Results of unrelated studies side by side (data: NIAID ChemDB).

Shared fields: tests in culture; agent: Mycobacterium tuberculosis

Blank or dashed fields: not listed here. Percent inhibition refers to the dose given; in toxicity tests it is the harm to the cells. ECn is the concentration giving n% inhibition of infection, replication or growth. A number after MIC or MFC names an inhibition level or a share of isolates. Rows are shuffled and stem from different studies. MIC bound comes from a single tested concentration.

compound	measure	dose	cell line	strain	method	changes	conditions	value
Cc1ccc(-c2cs/c(=N\NC(=O)COc3cnccn3)n2-c2ccc(Cl)cc2Cl)cc1	MIC	-	-	H37Rv	-	-	-	11.5 µg/mL
COc1ccc(NC(=O)OCCN2CCOCC2)cc1	MIC	-	-	My 331/88	-	-	-	>1000 µM
c1ccc2cc(OCCCn3ccnc3)ccc2c1	MIC99	-	-	H37Rv	turbidity / fluorescence	-	-	>20 µM
CC(Nc1ccnc(N)c1[N+](=O)[O-])/C(=N\O)c1ccc(O)cc1	inhibition	12.5 µg/mL	-	H37Rv	-	-	-	10%
CCCCCCCC/C=C/CCCCCC1CCCC(C)N1	MIC	-	-	PAS-R	-	-	-	6.3 µg/mL
Cc1cccc(CSc2nc(=O)[nH]c3nc[nH]c23)c1	inhibition	6.25 µg/mL	-	H37Rv	-	-	-	0%
CC(C)N=c1cc2n(-c3ccc(Cl)cc3)c3ccccc3nc-2cc1Nc1ccc(Cl)cc1	MIC	-	-	MDR9	broth dilution / resazurin	-	-	0.25 µg/mL
CCCOc1ccccc1NC(=O)OCCN1CCCCC1	MIC	-	-	My 331/88	-	-	-	600 µM
C/C(=N\NC(=O)c1ccncc1)c1ccccc1F	MIC	-	-	H37Rv	-	-	-	0.2 µg/mL
CCCCCCCCOc1ccc(NC(=O)OCC[NH+]2CCCC2)cc1	MIC	-	-	My 331/88	-	-	-	32 µM
CC1(C)CC(=O)c2c(nc(SSc3nc4c(c(-c5ccc(Br)cc5)c3C#N)C(=O)CC(C)(C)C4)c(C#N)c2-c2ccc(Br)cc2)C1	MIC bound	-	-	H37Rv	BACTEC	-	-	>12.5 µg/mL
CC(CNCCNCCCCc1ccccc1)c1ccccc1	MIC	-	-	-	-	-	-	25 µM
COc1c(OC(C)=O)cc2c(OC(C)=O)c1CC(C)CC(OC)C(O)C(C)/C=C(\C)C(OC(N)=O)C(OC)/C=C\C=C(/C)C(=O)N2	MIC bound	-	-	H37Rv	BACTEC	-	-	>12.5 µg/mL
Cc1ccc(Sc2ccncc2)cc1	MIC90	-	-	H37Rv	-	-	-	>6.25 µg/mL
CCCCCCCCCOc1cccc(NC(=O)OCCN2CCOCC2)c1	MIC	-	-	My 331/88	-	-	-	32 µM
Cc1cccc(Sc2ccncc2)c1	inhibition	6.25 µg/mL	-	H37Rv	-	-	-	0%
C1CCCC(NCCNCC23CC4CC(CC(C4)C2)C3)CCC1	MIC	-	-	-	-	-	-	12.5 µM
CC(NNC(=O)c1ccncc1)c1cccc(C(F)(F)F)c1	MIC	-	-	H37Rv (thiacetazone-resistant)	-	-	-	>31.25 µg/mL
Fc1ccccc1CCNCCNCCC(c1ccccc1)c1ccccc1	MIC	-	-	-	-	-	-	50 µM
CCCOc1ccccc1NC(=O)OCCN1CCOCC1	MIC	-	-	My 331/88	-	-	-	1000 µM
CCc1nc2ccc(C)cc2n1CCCCSc1ccc(Cl)cc1	MIC90	-	-	H37Rv	turbidity / fluorescence	QcrB M342T	-	>100 µM
CC1CN(c2c(F)cc3c(=O)c(C(=O)O)cn(C4CC4)c3c2F)CCN1	MIC	-	-	CSU23	-	-	-	≤0.125 µg/mL
CCCCC(CC)CN1CN(CC(CC)CCCC)CC(C)(NCCNCC(O)CO)C1	MIC	-	-	-	-	-	-	25 µM
CC(=O)Nc1cccc(/C=C/C(=O)c2ccccc2O)c1	EC50	-	-	-	-	-	-	>12.5 µg/mL
CCCCn1c(-c2ccc(Cl)cc2Cl)cs/c1=N\NC(=O)COc1cnccn1	MIC	-	-	H37Rv	-	-	-	7.2 µg/mL
CNNC1=NS(=O)(=O)c2cc(C#N)c(Cl)cc2S1	inhibition	6.25 µg/mL	-	H37Rv	resazurin	-	-	-22%
CCOC(=O)Nc1cc2[nH]c(-c3ccccc3)nc2c(N(C)Cc2ccccc2)n1	EC50	-	-	H37Rv	-	-	-	<12.5 µg/mL
O=C1C=C(Nc2ccccc2)c2ccccc2C1=O	MIC	-	-	H37Rv	resazurin	-	-	3.13 µg/mL
C[C@@H]1CN(c2c(F)c(N)c3c(=O)c(C(=O)O)cn(C4CC4)c3c2F)C[C@H](C)N1	MIC	-	-	CSU23	-	-	-	≤0.125 µg/mL
COc1ccc(OC)c(Sc2ncnc3nc[nH]c23)c1	MIC90	-	-	H37Rv	-	-	-	>6.25 µg/mL
NNC(=O)c1ccncc1	MIC	-	-	CSU22	-	-	-	>8 µg/mL
OCc1ccccc1Sc1ccccc1CNCCNCCCc1ccccc1	MIC	-	-	-	-	-	-	50 µM
CO[C@H]1/C=C/O[C@@]2(C)Oc3c(C)c(O)c4c(O)c(c5c(c4c3C2=O)NC2(CCN(CC(C)C)CC2)N=5)=NC(=O)/C(C)=C\C=C\[C@H](C)[C@H](O)[C@@H](C)[C@@H](O)[C@@H](C)[C@H](OC(C)=O)[C@@H]1C	MIC	-	-	Strain 78 (D516V)	-	-	-	0.125 µg/mL
COc1ccc(CCNCCNCCc2ccc(Cl)cc2Cl)cc1	MIC	-	-	-	-	-	-	50 µM
COc1ccccc1CSc1ncccn1	MIC90	-	-	H37Rv	-	-	-	>6.25 µg/mL
CC(=O)N/C(=C\c1ccc(/C=C(/NC(C)=O)C2=NC3C(=O)c4ccccc4C(=O)C3N2)cc1)C1=NC2C(=O)c3ccccc3C(=O)C2N1	inhibition	12.5 µg/mL	-	H37Rv	BACTEC	-	-	94%
O=C1CCCN1CCCNCCNCCCCc1ccccc1	MIC	-	-	-	-	-	-	25 µM
O=C(O)c1ccccc1C(=O)NC(Cc1cnc[nH]1)C(=O)O	inhibition	12.5 µg/mL	-	H37Rv	BACTEC	-	-	7%
O=C(NNCc1cccc(C(F)(F)F)c1)c1ccncc1	MIC	-	-	H37Rv (rifampin-resistant)	-	-	-	1.95 µg/mL
COc1ccc2c(c1)OC(c1ccccc1)CC2=O	inhibition	12.5 µg/mL	-	-	-	-	-	0%
Cc1ccc(NC(=O)OC(C)C)cc1Cl	inhibition	12.5 µg/mL	-	H37Rv	BACTEC	-	-	31%
Cc1ccc(CSc2ccccn2)cc1	MIC90	-	-	H37Rv	-	-	-	>6.25 µg/mL
O=c1oc2ccc([N+](=O)[O-])cc2c(=O)n1-c1cccc(F)c1	MIC	-	-	CNCTC MY331/88	-	-	-	31 µM
CC(NNC(=O)c1ccncc1)c1ccc(F)cc1	EC90	-	Macrophages	Erdman	colony count	-	inside macrophages	1.84 µg/mL
COc1ccc(-n2c(=O)oc3ccccc3c2=O)cc1	MIC	-	-	CNCTC MY331/88	-	-	-	62 µM
C[C@H]1COc2c(N3CCN(C)CC3)c(F)cc3c(=O)c(C(=O)O)cn1c23	MIC	-	-	Clinical isolate 309	resazurin	INH RIF resistant	-	0.25 µg/mL
CN[C@@H]1[C@H](O[C@H]2[C@H](O[C@H]3[C@H](O)[C@@H](O)[C@H](N=C(N)N)[C@@H](O)[C@@H]3N=C(N)N)O[C@@H](C)[C@]2(O)C=O)O[C@@H](CO)[C@H](O)[C@H]1O	MIC	-	-	Isolate 15	-	-	-	>128 µg/mL
CCOC(=O)Nc1cc(NC(c2ccccc2)c2ccccc2)c([N+](=O)[O-])c(NC/C(C)=N/NC(=O)O)n1	EC50	-	-	H37Rv	-	-	-	>12.5 µg/mL
COc1cccc(CSc2ncccn2)c1	MIC	-	-	H37Ra	-	-	-	>12.8 µg/mL
CCOc1ncn(-c2ccc(NC(=S)Nc3cnccn3)cc2)n1	MIC bound	-	-	H37Rv	BACTEC	-	-	>12.5 µg/mL
COc1ccccc1NC(=O)OCC[NH+]1CCCC1	MIC	-	-	My 331/88	-	-	-	1000 µM
COc1ccc(Sc2ccncc2)cc1OC	inhibition	6.25 µg/mL	-	H37Rv	-	-	-	0%
CCOc1ccc(NC(=O)C(=O)CC(=O)c2sc(NNC(C)=O)nc2C)cc1	MIC bound	-	-	H37Rv	resazurin	-	-	>6.25 µg/mL
C[C@@H](NCCNC1CCCCCCC1)C1CCCCC1	MIC	-	-	-	-	-	-	50 µM
COc1ccc(NC(=O)OCCN(C)C)cc1	MIC	-	-	My 331/88	-	-	-	>1000 µM
CC1CC(=O)NC1C(=O)O	MIC bound	-	-	H37Rv	BACTEC	-	-	>12.5 µg/mL
CCOc1ccc(-n2c(-c3ccc(OC)cc3)cs/c2=N\NC(=O)COc2cnccn2)cc1	MIC	-	-	H37Rv	-	-	-	14 µg/mL
COc1ccc2oc(=O)n(-c3ccc(Br)cc3)c(=O)c2c1	MIC	-	-	CNCTC MY331/88	-	-	-	62.5 µM
O=C1CC(c2ccccc2)Oc2ccc(Cl)cc21	inhibition	12.5 µg/mL	-	H37Rv	-	-	-	30%
COc1ccc(-c2cs/c(=N\NC(=O)COc3cnccn3)n2-c2ccc(Cl)cc2)cc1	MIC	-	-	H37Rv	-	-	-	16 µg/mL
CNC(=O)OCC1=C(COC(=O)NC)C2OC1C(C(=O)OC)=C2c1ccc(Cl)cc1	MIC bound	-	-	H37Rv	BACTEC	-	-	>12.5 µg/mL
C[C@H]1COc2c(N3CCN(C)CC3)c(F)cc3c(=O)c(C(=O)O)cn1c23	MIC	-	-	Isolate 8	-	-	-	4 µg/mL
Cc1ccc2oc(=O)n(-c3cccc([N+](=O)[O-])c3)c(=O)c2c1	MIC	-	-	CNCTC MY331/88	-	-	-	32 µM
CC[C@H]1OC(=O)[C@H](C)[C@@H](O[C@H]2C[C@@](C)(OC)[C@@H](O)[C@H](C)O2)[C@H](C)[C@@H](O[C@@H]2O[C@H](C)C[C@H](N(C)C)[C@H]2O)[C@](C)(OC)C[C@@H](C)C(=O)[C@H](C)[C@@H](O)[C@]1(C)O	MIC	-	-	89996	-	-	-	>4 µg/mL
CCOC(=O)Nc1cc2[nH]c(-c3ccc(OC)cc3)nc2c(N(CCc2ccccc2)Cc2ccccc2)n1	EC50	-	-	H37Rv	-	-	-	<12.5 µg/mL
COc1cc(/C=C/C(=O)NCC(=O)NN)cc(OC)c1OC	inhibition	12.5 µg/mL	-	H37Rv	BACTEC	-	-	1%
CCc1nc2ccccc2n1CCCCNc1ccc(OC)cc1	MIC90	-	-	H37Rv	turbidity / fluorescence	Rv1339 V90M	-	3 µM
COc1ccc(/C=C(/C#N)c2nc3ccccc3c(=O)[nH]2)cc1	inhibition	6.25 µg/mL	-	H37Rv	resazurin	-	-	-19%
O=C(N/N=C/c1ccccc1F)c1ccncc1	MBC	-	-	Isoniazid-resistant	-	-	-	>1.6 µg/mL
O=C(/C=C/c1ccccc1I)c1ccccc1O	EC50	-	-	H37Rv	-	-	-	>12.5 µg/mL
Cc1ccc(NC(=O)C(=NNC(N)=O)c2c(O)c3ccccc3[nH]c2=O)cc1	MIC bound	-	-	H37Rv	BACTEC	-	-	>12.5 µg/mL
COc1c(N2CCNC(C)C2)c(F)cc2c(=O)c(C(=O)O)cn(C3CC3)c12	MIC	-	-	Strain 325	-	-	-	0.5 µg/mL
NNC(=O)c1ccncc1	MIC	-	-	PR1499	-	-	-	0.16 µg/mL
O=c1c2c(oc3ccccc13)Oc1oc3ccccc3c(=O)c1C2c1ccc2c(c1)OCO2	MIC bound	-	-	H37Rv	BACTEC	-	-	>12.5 µg/mL
CC1CN(c2c(F)cc3c(=O)c(C(=O)O)cn(C4CC4)c3c2F)CC(C)N1	MIC	-	-	CSU23	-	-	-	≤0.125 µg/mL
O=[n+]1c2ccccc2n([O-])c2ccccc21	MIC	-	-	ETA-R	-	-	-	1.6 µg/mL
CCCCCCCCCCCCCCCCCCNCCNC1CCC1	MIC	-	-	-	-	-	-	50 µM
NNC(=O)c1ccncc1	MIC	-	-	91196	-	-	-	≥0.2 µg/mL
CCOC(=O)Nc1cc(N)c2nc(-c3ccccc3)c(N)nc2n1	EC50	-	-	H37Rv	-	-	-	>12.5 µg/mL
COc1cc2c(cc1OC)[C@@H]1C(=O)c3ccc4c(c3O[C@@H]1CO2)C[C@H](C(C)C)O4	MIC bound	-	-	H37Rv	BACTEC	-	-	>12.5 µg/mL
C[C@H]1COc2c(N3CCN(C)CC3)c(F)cc3c(=O)c(C(=O)O)cn1c23	MIC	-	-	Strain 328	-	-	-	0.25 µg/mL
CO[C@H]1/C=C/O[C@@]2(C)Oc3c(C)c(O)c4c(O)c(c(/C=N/N5CCN(C)CC5)c(O)c4c3C2=O)NC(=O)/C(C)=C\C=C\[C@H](C)[C@H](O)[C@@H](C)[C@@H](O)[C@@H](C)[C@H](OC(C)=O)[C@@H]1C	MIC	-	-	Isolate 17	-	-	-	<0.03 µg/mL
CCc1nc2ccccc2n1CCCNc1ccc(C)c(Br)c1	MIC99	-	-	H37Rv	turbidity / fluorescence	-	-	0.04 µM
CN(C)CCNc1ccc2nnn3c4ccc(O)cc4c(=O)c1c23	inhibition	12.5 µg/mL	-	H37Rv	BACTEC	-	-	91%
CCCCCCCCOc1ccc(NC(=O)OCCN(C)C)cc1	MIC	-	-	My 331/88	-	-	-	8 µM
COc1cc(OC)c2c(c1)Oc1cc(OC)cc(OC)c1C2	inhibition	12.5 µg/mL	-	H37Rv	BACTEC	-	-	-33%
O=C(N/N=C/c1cccc(C(F)(F)F)c1)c1ccncc1	MIC	-	-	H37Rv (ethambutol-resistant)	-	-	-	1 µg/mL